Results of unrelated studies side by side (data: NIAID ChemDB).

Shared fields: whole-cell or culture tests; species: HIV-1; cell line: MT-4; measure: EC50

Conditions beyond the fields shown may differ between rows.

SMILES | strain or isolate | mutations | method | setting | result
Cc1cn([C@H]2C=C[C@@H](CO)O2)c(=O)n(C)c1=O | IIIB |  | MTT |  | >359 µM
Cc1ccc(C(Br)c2ccnc(Nc3ccc(C#N)cc3)n2)cc1 | IIIB | K103N + Y181C | cytopathic effect |  | 31.5 µM
C=CCn1c(=O)c(C)cn([C@H]2C[C@H](N=[N+]=[N-])[C@@H](CO)O2)c1=O | IIIB |  | MTT |  | 0.9 µM
Cc1nc2ccccc2c(-c2cc(F)c3c(c2C)CCCO3)c1[C@H](OC(C)(C)C)C(=O)O | NL4-3 | V165I | luminescence |  | 0.024 µM
N#Cc1ccc(Nc2nccc(C(Cl)c3ccc(Br)cc3)n2)cc1 | IIIB | K103N + Y181C | cytopathic effect |  | 32.5 µM
CC(C)CC(NC(=O)OC(C)(C)C)C(=O)N1CCC(=O)C1 |  |  | syncytia / trypan blue |  | >100 µM
CCC(C)Sc1nc(Cc2cccc3ccccc23)c(CN2CCCCC2)c(=O)[nH]1 | IIIB |  | cytopathic effect / MTT |  | >26 µM
CC1(C)S[C@H]([C@H](NC(=O)Cc2ccccn2)C(=O)NCc2ccccc2)N[C@H]1C(=O)NCCNC(=O)[C@@H]1N[C@@H]([C@H](NC(=O)Cc2ccccn2)C(=O)NCc2ccccc2)SC1(C)C | IIIB |  | cytopathic effect / MTT |  | >100 µM
Cc1cc(/C=C/C#N)cc(C)c1Oc1nc(NC2CCN(Cc3ccccc3Cl)CC2)nc2ccsc12 | IIIB | NNRTI-resistant (RT Y181C) | MTT |  | 0.133 µM
COc1ccc(S(=O)(=O)N(CC(C)C)C[C@@H](O)[C@H](Cc2ccccc2)NC(=O)[C@@H]2CCCC3(C2)OCCO3)cc1 | IIIB |  | syncytia |  | 0.11 µM
CC(C)(C)OC(=O)N[C@@H](Cc1ccccc1)C(=O)N1CCC[C@H]1C(=O)O |  |  | syncytia / trypan blue |  | >100 µM
CCC(C)Sc1nc(Cc2ccccc2OC)cc(=O)[nH]1 | IIIB |  | cytopathic effect / MTT |  | 0.96 µM
C=C(C)COCn1c(CC2CCCc3ccccc32)c(CC)c(=O)[nH]c1=O | IIIB |  | cytopathic effect / MTT |  | 3 µM
N#Cc1ccc(Nc2nccc(C(Cl)c3cccc4ccccc34)n2)cc1 | IIIB | K103N + Y181C | cytopathic effect |  | 11.3 µM
CC(C)(C)OC(=O)NCC(=O)N1CCC(=O)C1 |  |  | syncytia / trypan blue |  | >100 µM
CSc1cc(N)nc(S[C@@H](C)c2cc3ccoc3cn2)n1 | IIIB |  | p24 |  | <0.008 µM
CC(C)=CCn1c(=O)c(C)cn([C@H]2C[C@H](N=[N+]=[N-])[C@@H](CO)O2)c1=O | IIIB |  | MTT |  | 10 µM
CCOCn1c(CC2CCCc3ccccc32)c(CC)c(=O)[nH]c1=O | N119 RT-Y181C NNRTI-resistant | RT-Y181C | cytopathic effect / MTT |  | >100 µM
Cc1cn([C@H]2C[C@H](N=[N+]=[N-])[C@@H](CO)O2)c(=O)[nH]c1=O | IIIB |  | MTT |  | 0.019 µM
O=S(=O)(O)O.O=S(=O)(O)O.O=S(=O)(O)O.O=S(=O)(O)O.O=S(=O)(O)O.O=S(=O)(O)O.OC[C@H]1O[C@@H]2O[C@H]3[C@H](O)[C@@H](O)[C@@H](O[C@H]4[C@H](O)[C@@H](O)[C@@H](O[C@H]5[C@H](O)[C@@H](O)[C@@H](O[C@H]6[C@H](O)[C@@H](O)[C@@H](O[C@H]7[C@H](O)[C@@H](O)[C@@H](O[C@H]1[C@H](O)[C@H]2O)O[C@@H]7CO)O[C@@H]6CO)O[C@@H]5CO)O[C@@H]4CO)O[C@@H]3CO | IIIB |  | cytopathic effect / MTT |  | 26.2 µg/mL
CC(C)(C)OC(=O)N[C@@H](Cc1ccccc1)[C@@H](O)C[C@]1(Cc2ccccc2)NC=C(C2c3ccccc3[C@H]3NC(=O)O[C@@H]23)C1=O | IIIB WT |  | p24 | 10% FBS | <0.156 µM
C=C1CN(S(=O)(=O)c2ccc(C)cc2)CCCN(Cc2ccccc2)CCCN(S(=O)(=O)c2ccc(C)cc2)C1 | A17 | Pyridinone-resistant (RT K103N Y181C) |  |  | 2 µM
Cn1cc(NC(=O)Nc2cc(C(=O)Nc3cc(C(=O)Nc4ccc(S(=O)(=O)O)c5cc(S(=O)(=O)O)ccc45)n(C)c3)n(C)c2)cc1C(=O)Nc1cc(C(=O)Nc2ccc(S(=O)(=O)O)c3cc(S(=O)(=O)O)ccc23)n(C)c1 | IIIB |  | cytopathic effect / XTT |  | 3.3 µM
O=C(/C=C/c1ccc(O)c(O)c1)O[C@H]1[C@H](O)[C@@H](O)[C@H](Oc2cc(O)c3c(=O)cc(-c4ccc(O)cc4)oc3c2)O[C@@H]1C(=O)O | IIIB |  | cytopathic effect |  | 41.86 µg/mL
CC(=O)NCNC(=O)CC(N)CCCN | IIIB |  | cytopathic effect / MTT |  | >100 µg/mL
CC1(C)S[C@H](C(NC(=O)Cc2ccccc2)C(=O)NCCO)N[C@H]1C(=O)NCCNC(=O)[C@@H]1N[C@@H](C(NC(=O)Cc2ccccc2)C(=O)NCc2ccccc2)SC1(C)C | IIIB |  | cytopathic effect / MTT |  | 67 µM
CCn1c(=O)c(C)cn([C@H]2C[C@H](N=[N+]=[N-])[C@@H](CO)O2)c1=O | IIIB |  | MTT |  | 16 µM
O=C(O)C1=CC(=C(c2ccc(O)c(C(=O)O)c2)c2ccc(O)c(C(=O)O)c2)C=CC1=O |  |  | cytopathic effect |  | 5 µM
Cc1cc(C#N)cc(C)c1Oc1nc(NC2CCC(NCc3ccc(F)cc3)CC2)nc2ccsc12 | IIIB | NNRTI-resistant (RT Y181C) | MTT |  | >2.77 µM
Cc1cc(C#CCCO)cc(C)c1Oc1ccnc(Nc2ccc(C#N)cc2)n1 | IIIB | K103N | MTT |  | 0.026 µM
CCC(C)Sc1nc(Cc2ccccc2)c(C)c(=O)[nH]1 | IIIB |  | cytopathic effect / MTT |  | 0.6 µM
CC1(C)S[C@H](C(NC(=O)Cc2ccccc2)C(=O)NCC(=O)O)N[C@H]1C(=O)NCCNC(=O)[C@@H]1N[C@@H](C(NC(=O)Cc2ccccc2)C(=O)NCc2ccccc2)SC1(C)C | IIIB |  | cytopathic effect / MTT |  | >100 µM
CC(C)(C)OC(=O)NCC(=O)N1CCC(O)C1 |  |  | syncytia / trypan blue |  | >100 µM
Cc1cc(C#N)cc(C)c1Oc1nc(NC2CCC(NCc3ccc([N+](=O)[O-])cc3)CC2)nc2ccsc12 | IIIB | NNRTI-resistant (RT Y181C) | MTT |  | ≥2.65 µM
CC1=CC(=C(c2ccc(N)c(S(=O)(=O)O)c2)c2ccc(N)c(S(=O)(=O)O)c2)C=C(S(=O)(=O)O)C1=N |  |  | cytopathic effect |  | 42 µM
Cc1ccccc1CN1CCC(Nc2nc(Oc3c(C)cc(/C=C/C#N)cc3C)c3sccc3n2)CC1 | IIIB | NNRTI-resistant (RT Y188L) | MTT |  | 0.174 µM
CN(C(=O)N[C@@H](Cc1ccccc1)C(=O)N1CCC(=O)C1)c1ccccc1 |  |  | syncytia / trypan blue |  | >50 µM
CCC(C)Sc1nc(Cc2ccc(OC)cc2)cc(=O)[nH]1 | IIIB |  | cytopathic effect / MTT |  | 14.7 µM
Cc1cn([C@H]2C[C@H](N=[N+]=[N-])[C@@H](CO)O2)c(=O)n(Cc2ccccc2)c1=O | IIIB |  | MTT |  | 45 µM
CC(C)COC12CCC(C(=O)C1)C1C(=O)N(CCCCN3CCN(c4ccccc4)CC3)C(=O)C12 |  |  | MTT |  | >84 µM
Cc1cc(/C=C/C#N)cc(C)c1Oc1nc(NC2CCN(Cc3ccncc3)CC2)nc2ccsc12 | RES056 |  | MTT |  | 0.0294 µM
COc1ccc(S(=O)(=O)N(CC(C)C)C[C@@H](O)[C@H](Cc2ccccc2)NC(=O)[C@H]2CCO[C@@]3(CCCO3)C2)cc1 | IIIB |  | syncytia |  | 2.7 µM
CC(C)=CCN1Cc2cc(Cl)cc3[nH]c(=O)n(c23)C[C@@H]1C | IIIB |  | cytopathic effect / XTT |  | 0.25 µM
O=C1CCN(C(=O)[C@H](Cc2ccccc2)NC(=O)c2ccccc2)C1 |  |  | syncytia / trypan blue |  | >50 µM
COc1ccc(CSc2nc(C(C)c3c(F)cccc3F)c(C)c(=O)[nH]2)cc1 | IIIB |  | MTT |  | 0.000025 µM
CC(=O)CCCCCCCCCCCCCCC(=O)OCCOCn1c(C)nc(C(C)C)c1Sc1cc(Cl)cc(Cl)c1 | IIIB |  | cytopathic effect / MTT |  | 0.008 µg/mL
Cc1cc(/C=C/C#N)cc(C)c1Oc1nc(NC2CCN(Cc3cccnc3)CC2)nc2ccsc12 | IIIB | NNRTI-resistant (RT L100I) | MTT |  | 0.00446 µM
CC1(C)CC=C(c2cn(-c3nccc(C(=O)NC4CCC(N5CC6CCC(C5)O6)CC4)n3)c3ccc(F)c([C@H](OC(C)(C)C)C(=O)O)c23)CC1 | NL4-3 | T124N | luminescence |  | 0.0047 µM

For reference, 7 entries again:

SMILES	strain or isolate	mutations	method	setting	result
Cc1cc(/C=C/C#N)cc(C)c1Oc1nc(NC2CCN(Cc3ccccc3Cl)CC2)nc2ccsc12	IIIB	NNRTI-resistant (RT Y181C)	MTT		0.133 µM
CSc1cc(N)nc(S[C@@H](C)c2cc3ccoc3cn2)n1	IIIB		p24		<0.008 µM
CC(C)=CCN1Cc2cc(Cl)cc3[nH]c(=O)n(c23)C[C@@H]1C	IIIB		cytopathic effect / XTT		0.25 µM
Cn1cc(NC(=O)Nc2cc(C(=O)Nc3cc(C(=O)Nc4ccc(S(=O)(=O)O)c5cc(S(=O)(=O)O)ccc45)n(C)c3)n(C)c2)cc1C(=O)Nc1cc(C(=O)Nc2ccc(S(=O)(=O)O)c3cc(S(=O)(=O)O)ccc23)n(C)c1	IIIB		cytopathic effect / XTT		3.3 µM
N#Cc1ccc(Nc2nccc(C(Cl)c3cccc4ccccc34)n2)cc1	IIIB	K103N + Y181C	cytopathic effect		11.3 µM
Cc1cn([C@H]2C[C@H](N=[N+]=[N-])[C@@H](CO)O2)c(=O)[nH]c1=O	IIIB		MTT		0.019 µM
N#Cc1ccc(Nc2nccc(C(Cl)c3ccc(Br)cc3)n2)cc1	IIIB	K103N + Y181C	cytopathic effect		32.5 µM

Blank or dashed fields: not listed here. ECn: concentration that inhibits the pathogen or its effect by n%.